Results of unrelated studies side by side (data: NIAID ChemDB).

All rows: growth or infection tests; agent: Cytomegalovirus; cell line: HEL; measure: EC50

ECn: concentration that inhibits the pathogen or its effect by n%. Rows are shuffled and stem from different studies.

Cc1ccc[n+]([O-])c1SC(C)c1ccccc1 ; method: cytopathic effect ; result: >50 µg/mL
Nc1nc2c(ncn2COC(CO)CO)c(=O)[nH]1 ; strain or isolate: AD169 ; method: plaque count ; result: 0.7 µg/mL
CC1(C)[C@@H](CO)CC[C@@]1(C)Cn1nnc2c(N)ncnc21 ; strain or isolate: DAVIS ; method: cytopathic effect ; result: >50 µg/mL
O=S(Cc1ccc(F)cc1)c1cccc[n+]1[O-] ; method: cytopathic effect ; result: >50 µg/mL
CC1(C)[C@@H](CO)CC[C@@]1(C)Cn1cnc2c(=O)[nH]cnc21 ; strain or isolate: DAVIS ; method: cytopathic effect ; result: >50 µg/mL
C=C[C@H](O)C1=C[C@@H](n2cnc3c(N)ncnc32)[C@H](O)[C@@H]1O ; strain or isolate: DAVIS ; method: cytopathic effect ; result: >50 µg/mL
CCOc1ccccc1CS(=O)c1cccc[n+]1[O-] ; method: cytopathic effect ; result: >50 µg/mL
Nc1ccn(C[C@@H](CO)OCP(=O)(O)O)c(=O)n1 ; strain or isolate: AD169 ; method: plaque count ; result: 0.07 µg/mL
CC1(C)[C@@H](CO)CC[C@@]1(C)Cn1ccc(=O)[nH]c1=O ; strain or isolate: AD169 ; method: cytopathic effect ; result: >50 µg/mL
Cc1ccc([N+](=O)[O-])cc1CS(=O)(=O)c1cccc[n+]1[O-] ; method: cytopathic effect ; result: >50 µg/mL
CC(C)CS[C@@H]1C=C[C@H](n2cnc3c(N)ncnc32)C1 ; strain or isolate: AD169 ; method: cytopathic effect ; result: 16 µg/mL
CC1(C)[C@@H](CO)CC[C@@]1(C)Cn1cc(I)c(=O)[nH]c1=O ; strain or isolate: AD169 ; method: cytopathic effect ; result: >50 µg/mL
Nc1ncnc2c1ncn2C[C@H]1COP(=O)(O)CO1 ; strain or isolate: AD169 ; method: plaque count ; result: 0.08 µg/mL
CC[C@H](O)C1=C[C@@H](n2cnc3c(N)ncnc32)[C@H](O)[C@@H]1O ; strain or isolate: DAVIS ; method: cytopathic effect ; result: >50 µg/mL
COc1ccc(OC)c(CS(=O)(=O)c2cccc[n+]2[O-])c1 ; method: cytopathic effect ; result: >50 µg/mL
C#C[C@H](O)C1=C[C@@H](n2cnc3c(N)ncnc32)[C@H](O)[C@@H]1O ; strain or isolate: DAVIS ; method: cytopathic effect ; result: >50 µg/mL
N#C/C(=C/c1ccc(Cl)cc1Cl)S(=O)(=O)c1cccc[n+]1[O-] ; method: cytopathic effect ; result: >5 µg/mL
Nc1nc2c(ncn2CC(CO)OCP(=O)(O)O)c(=O)[nH]1 ; strain or isolate: AD169 ; method: cytopathic effect ; result: 0.7 µg/mL

For reference, 2 entries again:

smiles	strain or isolate	method	result
CC[C@H](O)C1=C[C@@H](n2cnc3c(N)ncnc32)[C@H](O)[C@@H]1O	DAVIS	cytopathic effect	>50 µg/mL
CC1(C)[C@@H](CO)CC[C@@]1(C)Cn1cc(I)c(=O)[nH]c1=O	AD169	cytopathic effect	>50 µg/mL